## Library screen at single concentrations

Data taken from ChEMBL document CHEMBL3988442, “University of Dundee, Small-Polar-MMV Screening Library” (2021).

Mtb glucose medium: 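Whole-cell growth test on Mycobacterium tuberculosis, read after 3 days in glucose-containing 7H9 medium; the read-out is not stated. Tested at 500 µM. Higher reads as more growth inhibition (inferred: compounds with an IC50 in retests scored well above the rest). Of about 18,000 compounds tested this way, about 1,400 (7.9%) reached 50% or more in at least one test.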
Mtb cholesterol medium: 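Whole-cell growth test on Mycobacterium tuberculosis, read after 4 days in a medium based on cholesterol and the lipid DPPC; the read-out is not stated. Concentration: 500 µM. Direction is inferred from retests: higher values go with more growth inhibition. Size under these conditions: about 18,000 compounds, about 900 of them at 50% or above in at least one test.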

The filed quantity is “Percent Effect” (%). How 0% and 100% were set is not recorded. Most values in the screen are low, and negative values occur. The entries come from a sample that favours strong results. A dash means the value is not listed here; it may have been measured.

| compound | Mtb glucose medium | Mtb cholesterol medium |
|---|---|---|
| `Cc1cc(C)nc(CN(C)CCC(=O)NC(C)C)c1` | 6.934 | - |
| `Cc1nsc(N2CCN(CCS(C)(=O)=O)CC2)n1` | - | -3.793 |
| `CC(C#N)Sc1nnnn1Cc1cccs1` (stereo not given) | 35.33 | - |
| `CO[C@@H]1COCC[C@H]1N` | 9.63 | - |
| `c1cnn(CCNCc2ccc3c(c2)CCO3)c1` | - | 4.725 |
| `COCC(O)CNc1ncc(Br)cn1` (stereo not given) | - | 9.961 |
| `CCN1CCC(O)CC1` | 11.8 | - |
| `NC(=O)c1ccc(S(=O)(=O)N2CCNCC2)o1` | - | 5.234 |
| `O=C(COc1cccc(F)c1)N1CCN(CCO)CC1` | 0.1095 | - |
| `Cn1ccnc1C1CCCN1C(=O)c1ccccc1F` (stereo not given) | 2.557 | - |
| `COc1ccccc1C(=O)CN` | - | 0.4123 |
| `CNC(=O)CN(C)C1CCCc2ccccc21` (stereo not given) | -3.271 | - |
| `Cc1ccc(CN(C)CC(=O)N2CCNC2=O)c(C)c1` | -14.74 | - |
| `CSCCC(NS(=O)(=O)c1ccc(C)cc1)C(N)=O` (stereo not given) | - | -9.904 |
| `CC(NC(=O)Cc1cccnc1)c1cn2ncsc2n1` (stereo not given) | 14.52 | - |
| `O=C(Nc1cc[nH]n1)c1csc(I)c1` | 79.53 | 79.03 |
| `COCC(C)NC(=O)CCNC(=O)c1cccc(C)c1` (stereo not given) | - | -7.85 |
| `CS(=O)(=O)Nc1cccc(C(=O)NCc2ccco2)c1` | 29.71 | - |
| `CCOc1ccc(CNC(=O)CCn2cccn2)cc1` | 57.28 | - |
| `CCS(=O)(=O)N(C)CCCNc1cc(C)ccn1` | 27.22 | 7.125 |
| `COC(=O)NC(C)C(=O)NCC1(Cn2ccnc2)CC1` (stereo not given) | - | 5.783 |
| `N#Cc1ccc(OCC(=O)Nc2ccccn2)cc1` | 47.66 | 73.33 |
| `CCn1nc(-c2ccc(F)cc2)oc1=O` | -8.999 | - |
| `COc1ccnc(NC(=O)NCc2cccs2)c1` | 67.39 | 60.95 |
| `CCNC(=O)C(C)NC(=O)c1ccc(OC)c(OC)c1` (stereo not given) | 3.384 | - |
| `CN(C)C(=O)CNC(CO)c1ccc(Cl)c(F)c1` (stereo not given) | - | -16.18 |
| `CS(=O)(=O)NCc1ccc(CN2CCCC2=O)cc1` | 4.31 | - |
| `NC(=O)c1cccc(CSc2ccncc2)c1` | 17.65 | - |
| `CNCC(C)(C)CO` | 10.81 | - |
| `CN(C)CCN(C)c1cc(C2CC(O)C2)ncn1` (stereo not given) | - | 4.867 |
| `CN(C)[C@@H]1CN(C(=O)c2ccncc2F)C[C@H]1CO` | -4.483 | - |
| `COCCCOC1CN(C(=O)c2cccnc2)C1` | 37.64 | 17.15 |
| `N#Cc1ccc(S(=O)(=O)N2CCC[C@@H](N)C2)cc1Cl` | 29.15 | 27.62 |
| `NC(=O)NC(=O)CSc1nnc(-c2ccccc2F)[nH]1` | 0.6955 | -15.9 |
| `O=C(CCCN1CCCCC1)NCCc1cnccn1` | 4.841 | - |
| `CC(C)C(=O)Nc1ccccc1-n1cncn1` | - | -5.927 |
| `CNC(=O)CN(CCO)Cc1cc(Br)ccc1F` | 25.18 | 5.191 |
| `Cc1ccc(F)cc1C(=O)NCCNC1CC1` | 34.79 | - |
| `N#Cc1ncn(CCOC(=O)Nc2ccccc2)n1` | 19.19 | - |
| `NC(CCN1CCOCC1)c1ccccc1` (stereo not given) | 1.079 | -1.973 |
| `N[C@@H]1C[C@@H]1N1CCOCC1` | 20.92 | - |
| `CC(=O)NC1CN(C(=O)NCc2ccc(Br)c(F)c2)C1` | - | -3.231 |

Some entries from above, unchanged:

For COCCCOC1CN(C(=O)c2cccnc2)C1 the result was Mtb glucose medium: 37.64%; Mtb cholesterol medium: 17.15%.
For NC(=O)c1cccc(CSc2ccncc2)c1 the result was Mtb glucose medium: 17.65%.
For CO[C@@H]1COCC[C@H]1N the result was Mtb glucose medium: 9.63%.